Measured values from several laboratories, pooled; numbers as filed in NIAID ChemDB.

Shared fields: whole-cell or culture tests; agent: HIV-1; method: luciferase; endpoint: EC50

Blank or dashed fields: not listed here. ECn: concentration that inhibits the pathogen or its effect by n%. Rows are shuffled and stem from different studies.

smiles	cell line	changes	conditions	strain or isolate	value
Nc1nc2c(ccn2C[C@H](CF)OCP(=O)(O)O)c(=O)[nH]1	TZM-bl			NL4-3	>100 µM
Cc1cc(C#N)cc(C)c1Oc1nc(Nc2ccc(C#N)cc2)nc(N)c1Br	HEK293T	N348I	clinical isolate	Clinical isolate	0.00426 µM
CCCCCOC(=O)C[C@H](NP(=O)(CO[C@@H](CF)Cn1ccc2c(=O)[nH]c(N)nc21)N[C@@H](CC(=O)OCCCCC)C(=O)OCCCCC)C(=O)OCCCCC	TZM-bl			NL4-3	>4 µM
COc1cc2c(OC3OCC(O)(CO)C3OC3OCC(O)C(O)C3O)c3c(c(-c4cc5c(cc4O)OCO5)c2cc1OC)C(=O)OC3	A549			NL4-3	48.6 µM
CC(C)(N)C(=O)O.[Na+]				NL4-3	0.34 µM
Cc1ccc(-n2c(C)nnc2SCC(=O)Nc2ccc(C)cc2Br)cc1	HeLa + HeLa-JC53	RT-K103N Y181C		NL4-3	0.1 µM
CC1(C)O[C@@H]1COc1c2occc2cc2ccc(=O)oc12	MT-2			NL4-3 Recombinant VSV-pseudotyped	25 µM
Cc1ccc(-c2c([C@H](CC(C)C)C(=O)O)n(C)c(=O)c3ccccc23)c(C)c1	MT-4				11.1 µM
CO[C@H]1CCCC[C@@H](c2ccccc2)OC(=O)C(C)[C@@]2(O)OC([C@@H](C)[C@H](O)[C@H]2OC)[C@@H](C)/C=C/[C@H]1OC	PBMC			BaL	1.59 µM
Nc1ccn([C@@]23C[C@@H]2[C@@H](CO)CO3)c(=O)n1	HOS-13				23 µM
CCNC(=S)N/N=C(\c1ccccc1)c1ccccn1	CEM	(delta)vpr		VSV-G-pseudotyped NL4-3	0.075 µM
C/C=C/C=C/C(O)=C1/C(=O)C2C3/C(=C(O)/C=C/C=C/C)C(=O)[C@@]4(C)C1[C@]1(C)O[C@@]4(O)[C@@]3(C)O[C@]21O	SupT1		pseudotyped		53.3 µM
Cc1ccc(NC(=O)CSc2nnc(C)n2-c2ccc(C)c3ccccc23)c(Cl)c1	HeLa + HeLa-JC53	RT-K103N Y181C		NL4-3	0.016 µM
CC1(C)[C@H]2CC[C@@]34CC[C@@H](C[C@H]3[C@]2(C)CC[C@@H]1O)[C@](O)(CO)C4	MT-4			NL4-3	>20 µM
C=C(C)[C@]12C[C@@H](COC(=O)c3ccccc3)[C@@]34OC5(O[C@@H]1[C@@H]3[C@@H]1O[C@]1(COC(=O)c1ccccc1)[C@@H](O)[C@@]1(O)[C@H]4[C@H]([C@H](C)[C@@H]1O)[C@@H](C)CCCCCC[C@H]5O)O2	MT-4			NL4-3	0.00361 µM
C=C(C)[C@@H]1CC[C@]2(C(=O)N3CCN(C)CC3)CC[C@]3(C)[C@H](CC[C@@H]4[C@@]5(C)CC=C(c6ccc(C(=O)O)cc6)C(C)(C)[C@@H]5CC[C@]43C)[C@@H]12	MT-2	Gag P373S		NL4-3	0.061 µM
CC(=O)N1CCC(C(=O)N(CCCN2CCC(Cc3ccc(C(N)=O)cc3)CC2)c2ccc(C)c(Cl)c2)CC1	U87 (CD4+ CCR5+) + U87			R5 subtype A_2 recombinant	0.014 µM
Cc1ccnc2c1NC(=O)c1cccnc1N2C1CC1	ACH2 + TZM-bl			NL4-3	0.03153 µM
C=CCNC(=S)N/N=C(\c1ccccc1)c1ccccn1	CEM	(delta)vpr		VSV-G-pseudotyped NL4-3	0.16 µM
O=C1CCCN1CCCN1CC(=O)N2CC(N(CCOc3ccccc3)S(=O)(=O)c3cccc(F)c3)C[C@H]2C1=O	TZM-bl			PLAI-JRFL WILD TYPE	0.425 µM
CC[C@H](C)[C@H]1NC(=O)[C@@H](NC(=O)[C@H](CC(C)C)N(C)C(=O)[C@@H]2CCCN2C(=O)C(C)=O)[C@@H](C)OC(=O)[C@H](Cc2ccc(OC)cc2)N(C)C(=O)[C@@H]2CCCN2C(=O)[C@H](CC(C)C)NC(=O)[C@@H](C)C(=O)[C@H](C(C)C)OC(=O)C[C@@H]1O	MT-2			NL4-3	0.22 µM
CC(C)=CCOc1c2occc2cc2ccc(=O)oc12	HeLa			NL4-3 Recombinant VSV-pseudotyped	<50 µM
CC(C)OC(=O)[C@H](C)N[P@](=O)(CO[C@H](C)Cn1cnc2c(N)ncnc21)Oc1ccccc1	PBMC			NL4-3	0.0007 µM
Cc1c(-c2ccc(-c3ccccc3F)cc2)nc2ccc(F)cc2c1C(=O)O	TZM-bl			LAI	40 µM
C[C@@H]1O[C@@H](OC[C@H]2O[C@@H](Oc3c(-c4ccc(OS(=O)(=O)O)c(OS(=O)(=O)O)c4)oc4cc(OS(=O)(=O)O)cc(OS(=O)(=O)O)c4c3=O)[C@H](OS(=O)(=O)O)[C@@H](OS(=O)(=O)O)[C@@H]2OS(=O)(=O)O)[C@H](OS(=O)(=O)O)[C@H](OS(=O)(=O)O)[C@H]1OS(=O)(=O)O	TZM-b1			BAL R5	8.5 µM
Cc1nnc(C(C)C)n1C1C[C@H]2CC[C@@H](C1)N2CC[C@H](NC(=O)C1CCC(F)(F)CC1)c1ccccc1	TZM-bl			JR-FL	0.00598 µM
O=C(O)[C@@H](CS(=O)(=O)c1ccc([N+](=O)[O-])cc1)NC(=O)C1(c2ccc3ccccc3c2)CCN(Cc2ccc3ccccc3c2)CC1	TZM-bl		pseudotyped	NL4-3	16.96 µM
CCc1ccc(-n2c(C)nnc2SCC(=O)Nc2ccccc2Br)c2ccccc12	HeLa + HeLa-JC53	RT-Y188L		NL4-3	0.058 µM
CC(CO)[C@@H](C)C1OC1[C@@H](C)[C@H]1CCC2=C3C(CC[C@@]21C)[C@@]1(C)CC[C@H](O[C@H]2O[C@H](CO)[C@@H](O)[C@H](O)[C@H]2O)C[C@]1(O)[C@@H](O)[C@H]3O	SupT1		pseudotyped		41.6 µM
Cc1nc(C)c([C@H](OC(C)(C)C)C(=O)O)c(N2CC[C@H]3CCCC[C@@H]3C2)c1-c1ccc(OCCc2ccc(F)cc2)cc1	MT-2			NL4-3	<0.1 µM
Cc1cn([C@H]2C[C@H](N=[N+]=[N-])[C@@H](CO)O2)c(=O)[nH]c1=O	HeLa	RT-D67N T69N M184V T215F K219Q		NRTI resistant	0.079 µM
Cc1ccc(NC(=O)CSc2nnc(C)n2-c2c(C)ccc3ccccc23)c(Cl)c1	HeLa + HeLa-JC53	RT-K103N Y181C		NL4-3	0.06 µM
C[C@H](N)C(=O)O.[Na+]				IIIB	0.41 µM
C=C(C)[C@@H]1CC[C@]2(NCC[C@]3(O)CCC[C@H](S(C)(=O)=O)C3)CC[C@]3(C)[C@H](CC[C@@H]4[C@@]5(C)CC=C(C6=CC[C@](CF)(C(=O)O)CC6)C(C)(C)[C@@H]5CC[C@]43C)[C@@H]12	MT-2	A364V		NL4-3	>0.05 µM
CC(C)[C@@H](C)/C=C/[C@@H](C)C1CCC2=C3C(CC[C@@]21C(=O)O)[C@@]1(C)CC[C@H](OC(=O)[C@@H](N)[C@@H](OS(=O)(=O)O)C(C)C)C[C@@]12OC2[C@@H]3O	SupT1		pseudotyped		1.9 µM
Cn1c2ccccc2c2c1cc(C#N)c(=O)n2-c1ccc([N+](=O)[O-])cc1	HeLa	RT-M184V		NRTI resistant	0.081 µM
Cc1nc2ccccc2n1C1C[C@H]2CC[C@@H](C1)N2CCC(CN(C)S(=O)(=O)c1ccccc1)c1ccccc1	HOS-CD4-CCR5				<0.01 µM
COc1cnc(-n2ncnc2CO)c2[nH]cc(C(=O)C(=O)N3CCc4c(cccc4-c4ccccn4)C3)c12	HeLa				<0.1 µM
CC(C)[C@@H](C)/C=C/[C@@H](C)[C@H]1CCC2C3=CC(=O)[C@@]4(O)C[C@@H](O)CC[C@]4(C)C3CC[C@@]21C	SupT1		pseudotyped		12.4 µM
Cc1nc(C)c([C@H](OC(C)(C)C)C(=O)O)c(N2CCC(C3CCCCC3)CC2)c1-c1ccc(C(=O)NCc2ccccc2)cc1	MT-2			NL4-3	<0.1 µM
C=C(C)[C@H]1[C@@H]2OC3(/C=C/C=C/CCCCC)O[C@@H]2[C@@H]2[C@@H]4O[C@]4(CO)[C@@H](O)[C@]4(O)C(=O)C(C)=C[C@H]4[C@@]2(O3)[C@@H]1C				NL4-3	0.00586 µM
COCc1c(CNCC(C)C)cc2cc(OC)c(OC)cc2c1-c1ccc(OC)c(OC)c1	U87 (CD4+ CCR5+) + U87			CONB/pNL43E-Luc+	0.32 µg/mL
CCC[N+]1=CC(c2cc(C3C(=O)N(CC)c4ccc(C(F)(F)F)cc4N(c4ccccc4)C3=O)cc(OC)c2O)C=N1				NL4-3	0.07 µM
CC[C@H](C)[C@H]1NC(=O)[C@@H](NC(=O)[C@@H](CC(C)C)N(C)C(=O)c2cc3ccccc3s2)[C@@H](C)OC(=O)[C@H](Cc2ccc(OC)cc2)N(C)C(=O)[C@@H]2CCCN2C(=O)[C@H](CC(C)C)NC(=O)[C@H](C(C)C)OC(=O)C[C@@H]1O	MT-2	Delta-env-VSV-Luc		NL4-3	0.038 µM
Cc1ccc(S(=O)(=O)n2cc(C(=O)/C=C3\OC(C)(C)OC3=O)c3cc(Br)ccc32)cc1	TZM-bl				0.15 µM
CCOC(=O)c1[nH]c2ccc(Cl)cc2c1Cc1ccccc1	293T				0.24 µM
Cc1cc(Cl)cc(C)c1Oc1nn(Nc2ccc(Cl)cc2)c(=O)c2ccccc12	TZM-bl			BaL	>10 µM
C/C=C/C=C/C(=O)C1=C[C@@]2(C)C3\C(=C(O)/C=C/C=C/C)C(O)=C(C)C(=O)[C@@]3(C)O[C@@]2(O)[C@@](C)(O)C1=O	SupT1		pseudotyped		73.1 µM
Cc1cn([C@H]2C[C@H](N=[N+]=[N-])[C@@H](CO)O2)c(=O)[nH]c1=O	MT-4			NL4-3	0.0043 µM
CC[C@H](C)[C@H](N)C(=O)O.[Na+]				NL4-3	0.1 µM
Cc1nnc(SCC(=O)Nc2ccc(S(N)(=O)=O)cc2Cl)n1-c1cccc2cccnc12	HeLa + HeLa-JC53	RT-Y188L		NL4-3	2.4 µM
C=C[C@@]1(C)C=C2CC[C@@H]3[C@@](C)(CO)[C@H](O)CC[C@@]3(C)[C@@H]2C[C@@H]1O	MT-4			NL4-3	>20 µM
Cc1cn([C@H]2C[C@H](N=[N+]=[N-])[C@@H](CO)O2)c(=O)[nH]c1=O	U87 (CD4+ CCR5+) + U87			CONB/pNL43E-Luc+	<0.2 µg/mL
CN1C(=O)C(c2ccc(O)cc2)C(=O)N(c2ccccc2)c2cc(C(F)(F)F)ccc21				NL4-3	1.1 µM
CC[C@H](C)[C@H]1NC(=O)[C@@H](NC(=O)[C@@H](CC(C)C)N(C)S(=O)(=O)c2ccc(C)cc2)[C@@H](C)OC(=O)[C@H](Cc2ccc(OC)cc2)N(C)C(=O)[C@@H]2CCCN2C(=O)[C@H](CC(C)C)NC(=O)[C@H](C(C)C)OC(=O)C[C@@H]1O	PBMC			JR	0.016 µM
Cc1cccc(C)c1OCC(=O)N[C@@H](Cc1ccccc1)[C@@H](O)C[C@H](Cc1ccccc1)NC(=O)[C@H](C(C)C)N1CCCNC1=O	HEK 293 + 293T	PR-L10I L33F M46I I54V L63P A71L V77I V82A L90M		NL4-3	1.434 µM
Cc1ccc(NC(=O)CSc2nnc(C)n2-c2ccc(Cl)c3ccccc23)c(Cl)c1	HeLa + HeLa-JC53	RT-Y188L		NL4-3	0.32 µM
CC(C)[C@@H]1CC[C@]2(C(=O)NCCC(=O)O)CC[C@]3(C)[C@H](CC[C@@H]4[C@@]5(C)CC=C(c6ccc(C(=O)O)cc6)C(C)(C)[C@@H]5CC[C@]43C)[C@@H]12	MT-2	Gag P373S		NL4-3	<0.1 µM
CCCCCOC(=O)C[C@H](NP(=O)(CO[C@@H](CF)Cn1ccc2c(=O)[nH]c(N)nc21)Oc1ccccc1)C(=O)OCCCCC	TZM-bl			BaL	7.95 µM
CC(C)C(C)/C=C/C(C)[C@H]1CCC2C3C[C@@H](O)[C@@]4(O)C[C@@H](O)CC[C@]4(C)C3CC[C@@]21C	SupT1		pseudotyped		3.8 µM
CC[C@H](C)[C@H]1NC(=O)[C@@H](NC(=O)[C@@H](C)NC)[C@@H](C)OC(=O)[C@H](Cc2ccc(OC)cc2)N(C)C(=O)[C@@H]2CCCN2C(=O)[C@H](CC(C)C)NC(=O)[C@@H](C)C(=O)[C@H](C(C)C)OC(=O)C[C@@H]1O	MT-2			NL4-3	4.14 µM
N#Cc1cn(C[C@H](CF)OCP(=O)(O)O)c2nc(N)[nH]c(=O)c12	TZM-bl			BaL	>100 µM
COC[C@@H](c1ccc(C(F)(F)F)cc1)N1CCN(C2(C)CCN(C(=O)c3c(C)ncnc3C)CC2)C[C@@H]1C	PBMC	G516V F519I			0.0002 µM

A second listing of 9 rows from above:

{"smiles": "CCC[N+]1=CC(c2cc(C3C(=O)N(CC)c4ccc(C(F)(F)F)cc4N(c4ccccc4)C3=O)cc(OC)c2O)C=N1", "strain or isolate": "NL4-3", "value": "0.07 µM"}
{"smiles": "CCOC(=O)c1[nH]c2ccc(Cl)cc2c1Cc1ccccc1", "cell line": "293T", "value": "0.24 µM"}
{"smiles": "CC1(C)[C@H]2CC[C@@]34CC[C@@H](C[C@H]3[C@]2(C)CC[C@@H]1O)[C@](O)(CO)C4", "cell line": "MT-4", "strain or isolate": "NL4-3", "value": ">20 µM"}
{"smiles": "Cc1nnc(C(C)C)n1C1C[C@H]2CC[C@@H](C1)N2CC[C@H](NC(=O)C1CCC(F)(F)CC1)c1ccccc1", "cell line": "TZM-bl", "strain or isolate": "JR-FL", "value": "0.00598 µM"}
{"smiles": "C=CCNC(=S)N/N=C(\\c1ccccc1)c1ccccn1", "cell line": "CEM", "changes": "(delta)vpr", "strain or isolate": "VSV-G-pseudotyped NL4-3", "value": "0.16 µM"}
{"smiles": "C[C@@H]1O[C@@H](OC[C@H]2O[C@@H](Oc3c(-c4ccc(OS(=O)(=O)O)c(OS(=O)(=O)O)c4)oc4cc(OS(=O)(=O)O)cc(OS(=O)(=O)O)c4c3=O)[C@H](OS(=O)(=O)O)[C@@H](OS(=O)(=O)O)[C@@H]2OS(=O)(=O)O)[C@H](OS(=O)(=O)O)[C@H](OS(=O)(=O)O)[C@H]1OS(=O)(=O)O", "cell line": "TZM-b1", "strain or isolate": "BAL R5", "value": "8.5 µM"}
{"smiles": "CC[C@H](C)[C@H](N)C(=O)O.[Na+]", "strain or isolate": "NL4-3", "value": "0.1 µM"}
{"smiles": "COC[C@@H](c1ccc(C(F)(F)F)cc1)N1CCN(C2(C)CCN(C(=O)c3c(C)ncnc3C)CC2)C[C@@H]1C", "cell line": "PBMC", "changes": "G516V F519I", "value": "0.0002 µM"}
{"smiles": "Cc1cn([C@H]2C[C@H](N=[N+]=[N-])[C@@H](CO)O2)c(=O)[nH]c1=O", "cell line": "U87 (CD4+ CCR5+) + U87", "strain or isolate": "CONB/pNL43E-Luc+", "value": "<0.2 µg/mL"}